Assay results from article PMC6135763 (Nature Communications, 2018).

Legend:
[1] = target: GST-HeV W (C-terminal NLS domain of Hendra virus W protein, residues 409–448, GST fusion) (Hendra virus) (UniProt P0C1C6); assay: ELISA
[2] = target: GST-NiV W (C-terminal NLS domain of Nipah virus W protein, residues 411–450, GST fusion) (Nipah virus) (UniProt P0C1C7); assay: ELISA

## Importin α1ΔIBB (residues 71–529) (from UniProt P52292 71-529) (domain or fragment)
[1]
  pKd: 5.85
[2]
  pKd: 5.82

pKd: −log10 of the molar value.
